Target: PRC-1 (Pseudomonas wenzhouensis, UniProt Z9ZEF5EQX5)
Test: initial-rate beta-lactam hydrolysis, UV-VIS spectrophotometry
Type: biochemical
Settings: read-out: Km or Ki (μM)^a; 10 mM phosphate pH 7.4, 37°C

Amino acid sequences for entries named in this document (tags omitted). Residues count along the entry.
UniProt Z9ZEF5EQX5, 23-379 limits assumed: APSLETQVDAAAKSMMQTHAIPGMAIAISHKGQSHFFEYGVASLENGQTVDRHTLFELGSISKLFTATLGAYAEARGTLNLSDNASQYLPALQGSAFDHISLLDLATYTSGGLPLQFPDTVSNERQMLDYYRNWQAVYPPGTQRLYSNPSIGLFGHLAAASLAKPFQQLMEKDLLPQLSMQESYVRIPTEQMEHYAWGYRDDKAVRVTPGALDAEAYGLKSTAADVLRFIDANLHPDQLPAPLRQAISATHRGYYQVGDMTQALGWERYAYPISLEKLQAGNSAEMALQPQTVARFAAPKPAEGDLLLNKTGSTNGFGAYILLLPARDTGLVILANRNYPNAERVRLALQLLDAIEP

**Q.** Which Km does the source give for `CC1(C)S[C@@H]2[C@H](NC(=O)[C@H](N)c3ccccc3)C(=O)N2[C@H]1C(=O)O` here?
**A.** Its Km is 65 µM.

From PMC8719060, “Characterization of a Novel Chromosome-Encoded AmpC β-Lactamase Gene, blaPRC–1, in an Isolate of a Newly Classified Pseudomonas Species, Pseudomonas wenzhouensis A20, From Animal Farm Sewage” (Frontiers in Microbiology, 2021)
